Laboratory results as given in patent US8034355.
Construct, isoform or probe ends are uncertain for at least one entry.

Chains of the proteins cited; added tags and fusions are not shown. Lines headed by an entry give the natural chain unless they say otherwise; changes in a name come on top.
UniProt P03523: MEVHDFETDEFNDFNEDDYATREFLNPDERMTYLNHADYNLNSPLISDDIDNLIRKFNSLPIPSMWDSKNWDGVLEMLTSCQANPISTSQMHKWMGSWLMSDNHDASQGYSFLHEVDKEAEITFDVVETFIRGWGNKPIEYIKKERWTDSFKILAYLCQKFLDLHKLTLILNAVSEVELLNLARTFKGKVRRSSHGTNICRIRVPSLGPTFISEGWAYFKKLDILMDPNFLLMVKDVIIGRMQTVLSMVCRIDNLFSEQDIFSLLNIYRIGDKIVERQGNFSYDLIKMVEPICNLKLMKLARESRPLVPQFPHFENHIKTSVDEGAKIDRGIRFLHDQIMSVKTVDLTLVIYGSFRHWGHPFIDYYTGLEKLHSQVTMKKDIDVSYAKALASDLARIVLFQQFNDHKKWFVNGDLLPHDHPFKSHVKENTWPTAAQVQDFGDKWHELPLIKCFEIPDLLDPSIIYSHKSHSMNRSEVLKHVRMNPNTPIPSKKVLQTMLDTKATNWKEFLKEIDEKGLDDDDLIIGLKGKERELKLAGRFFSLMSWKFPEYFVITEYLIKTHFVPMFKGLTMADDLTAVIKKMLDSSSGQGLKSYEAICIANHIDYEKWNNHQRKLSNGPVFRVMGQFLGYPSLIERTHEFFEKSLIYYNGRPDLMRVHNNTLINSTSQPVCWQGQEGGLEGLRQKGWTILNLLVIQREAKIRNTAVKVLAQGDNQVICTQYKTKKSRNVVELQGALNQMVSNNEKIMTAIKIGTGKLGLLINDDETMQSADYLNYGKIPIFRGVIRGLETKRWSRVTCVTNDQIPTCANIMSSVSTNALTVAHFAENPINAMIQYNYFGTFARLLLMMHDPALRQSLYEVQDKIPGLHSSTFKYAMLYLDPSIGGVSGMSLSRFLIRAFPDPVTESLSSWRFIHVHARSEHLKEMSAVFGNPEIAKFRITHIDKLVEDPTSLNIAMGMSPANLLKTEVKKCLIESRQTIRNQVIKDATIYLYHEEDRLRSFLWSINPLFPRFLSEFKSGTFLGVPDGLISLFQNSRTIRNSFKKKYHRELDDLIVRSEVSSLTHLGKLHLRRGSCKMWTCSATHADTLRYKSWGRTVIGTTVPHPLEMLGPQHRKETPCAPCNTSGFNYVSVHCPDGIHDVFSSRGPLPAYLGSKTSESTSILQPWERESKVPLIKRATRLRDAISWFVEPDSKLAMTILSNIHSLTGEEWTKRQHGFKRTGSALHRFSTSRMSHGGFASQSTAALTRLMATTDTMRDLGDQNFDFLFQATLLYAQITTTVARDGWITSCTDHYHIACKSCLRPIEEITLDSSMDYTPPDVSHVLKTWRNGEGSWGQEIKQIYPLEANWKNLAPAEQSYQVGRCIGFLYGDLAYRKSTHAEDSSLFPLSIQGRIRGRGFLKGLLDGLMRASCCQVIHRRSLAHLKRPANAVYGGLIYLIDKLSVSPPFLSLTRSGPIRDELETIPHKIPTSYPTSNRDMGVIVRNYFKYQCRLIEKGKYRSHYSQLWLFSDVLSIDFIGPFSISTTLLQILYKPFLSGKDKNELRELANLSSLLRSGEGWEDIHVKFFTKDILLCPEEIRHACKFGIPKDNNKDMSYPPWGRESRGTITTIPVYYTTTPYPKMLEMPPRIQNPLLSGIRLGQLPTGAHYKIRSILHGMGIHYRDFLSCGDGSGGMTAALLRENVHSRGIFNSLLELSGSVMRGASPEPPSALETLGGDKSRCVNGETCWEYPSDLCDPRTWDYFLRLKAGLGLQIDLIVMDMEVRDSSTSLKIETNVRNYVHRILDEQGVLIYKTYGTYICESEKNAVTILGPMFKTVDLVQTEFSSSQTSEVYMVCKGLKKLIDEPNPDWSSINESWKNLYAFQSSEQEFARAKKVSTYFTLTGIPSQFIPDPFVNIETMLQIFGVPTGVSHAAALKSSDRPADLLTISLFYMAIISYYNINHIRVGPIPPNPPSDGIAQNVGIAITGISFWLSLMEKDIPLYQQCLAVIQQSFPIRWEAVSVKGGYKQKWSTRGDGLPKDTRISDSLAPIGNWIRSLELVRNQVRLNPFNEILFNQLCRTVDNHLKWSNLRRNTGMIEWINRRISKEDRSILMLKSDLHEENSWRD

Molecular target: VSV L protein (wild type, rVSV) (Vesicular stomatitis Indiana virus) (UniProt P03523)
Experiment: binding assay
Settings: 5' Gppp cap (7mGpppAm when fully methylated); only the motif is given

Does AACAG bind?
Result: binds
